Anti-infective test results gathered from many reports (values: NIAID ChemDB through PubChem).

Common to all: enzyme or target tests; organism: HIV-1; protein: Reverse transcriptase; read by: ELISA; read-out: inhibition

Inhibition is in % at the dose shown (toxicity tests: loss of growth or viability). Conditions beyond the fields shown may differ between rows.

Cc1ccc2c(c1)N(CCCCl)C(=O)c1ccnnc1O2 ; tested at: 33 µM ; value: 28%
Cc1ccccc1CSc1nc(Cl)cc(Cc2ccccc2)n1 ; tested at: 100 µM ; value: 0%
CN1CCN(c2cc3c(cc2F)c(=O)c(C(=O)O)cn3-c2cccc3ccccc23)CC1.CS(=O)(=O)O ; tested at: 1 µg/mL ; value: 60%
CCN1C(=O)c2ccnnc2Oc2c(C)cc(C)cc21 ; tested at: 33 µM ; value: 38%
CS(=O)(=O)O.C[C@@H]1CN(c2cc3c(cc2F)c(=O)c(C(=O)O)cn3-c2ccc3ccccc3c2)C[C@H](C)N1 ; tested at: 1 µg/mL ; value: 62%
CCOC(=O)CN1C(=O)c2ccnnc2Oc2ccccc21 ; tested at: 33 µM ; value: 22%
CC(C)(C)c1ccc(CSc2nc(Cl)cc(Cc3ccccc3)n2)cc1 ; tested at: 100 µM ; value: 0%
CCOC(=O)CN1C(=O)c2ccnnc2Oc2ccc(C)cc21 ; tested at: 330 µM ; value: 51%
CC(=O)O[C@H]1[C@H](C)[C@@H]([C@H](C)[C@@H](O)[C@@H](C)/C=C/C=C(/C)C(=O)NC2=CC(=O)c3c(c(O)c(C)c4oc(C)cc34)C2=O)OC(CC=O)[C@H]1C ; tested at: 300 µM ; value: 0%
CN1C(=O)c2ccnnc2N(C2CC2)c2ncccc21 ; tested at: 330 µM ; value: 69%
CS(=O)(=O)O.O=C(O)c1cn(-c2cccc3ccccc23)c2nc(N3CCNCC3)c(F)cc2c1=O ; tested at: 1 µg/mL ; value: 45%
CC(C)(C)c1ccc(CSc2nc(Cc3ccccc3)cc(=O)[nH]2)cc1 ; tested at: 100 µM ; value: 0%
CC1CN(c2cc3c(cc2F)c(=O)c(C(=O)O)cn3-c2ccc3ccccc3c2)CCN1.CS(=O)(=O)O ; tested at: 1 µg/mL ; value: 69%
COC(=O)c1cc(O)c(O)c(O)c1 ; tested at: 50 µM ; value: 46.4%
CCN1C(=O)c2cc(Cl)nnc2Oc2ccc(C)cc21 ; tested at: 330 µM ; value: 25%
CC1CN(c2nc3c(cc2F)c(=O)c(C(=O)O)cn3-c2ccc3ccccc3c2)CCN1.CS(=O)(=O)O ; tested at: 1 µg/mL ; value: 25%
Nc1cc(Cc2ccccc2)nc(SCCCc2ccccc2)n1 ; tested at: 100 µM ; value: 0%
Cc1ccc2c(c1)Oc1nnc(Cl)cc1C(=O)N2 ; tested at: 33 µM ; value: 36%
CN1CCN(c2nc3c(cc2F)c(=O)c(C(=O)O)cn3-c2cccc3ccccc23)CC1 ; tested at: 1 µg/mL ; value: 27%
CN1C(=O)c2ccnnc2N(C2CC2)c2ccccc21 ; tested at: 33 µM ; value: 26%
COC(=O)C(C)CCC[C@H](C)[C@H](O)[C@@H](C)[C@@H](O)[C@@H](C)[C@H](O)[C@H](C)[C@H](CCO[C@@]1(C)Oc2c(C)c(O)c3c(c2C1=O)C(=O)C=C(N)C3=O)OC ; tested at: 300 µM ; value: <20%
CS(=O)(=O)O.O=C(O)c1cn(-c2cccc3ccccc23)c2cc(N3CCNCC3)c(F)cc2c1=O ; tested at: 1 µg/mL ; value: 40%
Cc1cc(C)c2c(c1)N(CC1CC1)C(=O)c1ccnnc1O2 ; tested at: 330 µM ; value: 80%
COC(=O)/C(C)=C\C=C\[C@H](C)[C@@H]1OCO[C@@H]([C@@H](C)[C@H](OC(C)=O)[C@H](C)[C@H](/C=C/O[C@@]2(C)Oc3c(C)c(O)c4c(c3C2=O)C(=O)C=C(N)C4=O)OC)[C@@H]1C ; tested at: 300 µM ; value: <20%

A second listing of 2 rows from above:

{"structure": "CCN1C(=O)c2cc(Cl)nnc2Oc2ccc(C)cc21", "tested at": "330 µM", "value": "25%"}
{"structure": "Cc1ccc2c(c1)N(CCCCl)C(=O)c1ccnnc1O2", "tested at": "33 µM", "value": "28%"}